# Only a part is listed here, and it is no random draw. Entries with a potency or affinity are not part of this list. The source made the active and inactive calls. The rule behind the calls is not given here.
# Assay: host cell cytotoxicity of antiviral hits, dose response, cytotoxicity control for West Nile virus antiviral project, secondary assay (AID 1650)
# Details: Mammalian host cell viability, cytotoxicity counter-screen; at 10 µM (top of the series)
smiles,measurement,value
CCC1=CC2Cc3nc4ccc(Cl)cc4c(N)c3C(C1)C2 (stereo unspecified),viability,inactive: 74.4%

# Reference: PubChem BioAssay AID1650 (Southern Research Specialized Biocontainment Screening …, 2009)
